Assay results taken from PubChem BioAssay AID652162 (Broad Institute, 2013).
Only a part is listed here, and it is no random draw. Some salts or complexes appear as unconnected parts, following the source record. Calls of active or inactive are those of the source. Rule as the data show it: active = inhibition above about 10%; inactive = the rest.

These compounds were tested against Toxin B (Clostridioides difficile) (UniProt P18177) (assay: TcdB glycohydrolase inhibitors, primary screen, biochemical, single point, plate reader (AID 652162)). Details: TcdB glycohydrolase enzymatic assay, at 9.99 µM, hits give high values.

| Compound | inhibition |
| --- | --- |
| CCOC(=O)c1ccc(NP(C)(=O)Oc2ccc(Cl)cc2)cc1 (stereo not drawn) | inactive: -0.099% |
| Nc1ccc2c(ccc3cccnc32)n1.O=[N+]([O-])c1cc([N+](=O)[O-])c(O)c([N+](=O)[O-])c1 | inactive: -2.86% |
| CN(C)C(=O)c1c([N+](=O)[O-])cc([N+](=O)[O-])cc1[N+](=O)[O-] | inactive: 1.38% |
| COc1ccccc1OP(C)(=O)Nc1ccccc1Br (stereo not drawn) | inactive: 2.82% |
| CCc1ccc(OP(C)(=O)Nc2cccnc2)cc1 (stereo not drawn) | inactive: 0.712% |
| O=C(OCCCN1CCCC1)C(O)(c1ccccc1)C1CCCCC1 (stereo not drawn) | inactive: 0.434% |
| O=[N+]([O-])c1cc([N+](=O)[O-])c(Nc2ccccn2)c([N+](=O)[O-])c1 | inactive: -0.027% |
| COc1ccccc1OP(C)(=O)Nc1ccc(Br)cc1 (stereo not drawn) | inactive: 0.755% |
| CP(=O)(OCCOc1ccccc1)OCCOc1ccccc1 | inactive: 4.54% |
| CP(=O)(Nc1ccc(Cl)cc1Cl)Oc1ccccc1 (stereo not drawn) | inactive: -0.402% |
| CCCCCCCCCCCCCCCC1C[N+](C)(C)CCOP(C)(=O)O1 (stereo not drawn) | inactive: 1.08% |
| O=C1C(O)=C([N+](=O)[O-])C(=O)C(O)=C1[N+](=O)[O-] | inactive: 1.08% |
| Cc1cc(C)cc(OP(C)(=O)Nc2cccc(C(F)(F)F)c2)c1 (stereo not drawn) | inactive: 2.17% |
| O=[N+]([O-])c1cc([N+](=O)[O-])c(OC2CCCCC2O)c([N+](=O)[O-])c1 (stereo not drawn) | inactive: 1.1% |
| CCCCCOc1ccc(NP(C)(=O)Oc2ccc(Cl)cc2Cl)cc1 (stereo not drawn) | inactive: 0.44% |
| Cc1c([N+](=O)[O-])cc([N+](=O)[O-])c(Br)c1[N+](=O)[O-] | inactive: -2% |
| COc1ccc(OP(C)(=O)Nc2ccc(SC(F)(F)F)cc2)cc1 (stereo not drawn) | inactive: 3.72% |
| CCN(CC)CCCNc1ccccc1[N+](=O)[O-].O=[N+]([O-])c1cc([N+](=O)[O-])c(O)c([N+](=O)[O-])c1 | inactive: -0.162% |
| COc1ccc2c(c1O)-c1c(O)c(OC)cc3c1[C@H](C2)[N+](C)(C)CC3.O=[N+]([O-])c1cc([N+](=O)[O-])c([O-])c([N+](=O)[O-])c1[O-] | inactive: -9.38% |
| O=C(OCCN1CCN(CCOCc2ccccc2)CC1)C(O)(c1ccccc1)c1ccccc1 | inactive: 0.951% |
| O=C(OC1CN2CCC1CC2)c1ccc([N+](=O)[O-])cc1 (stereo not drawn) | inactive: -0.046% |

| Compound | inhibition |
| --- | --- |
| CC(C)c1ccc(OP(C)(=O)Nc2ccc(SC(F)(F)F)cc2)cc1 (stereo not drawn) | inactive: 0.851% |
| CP(=O)(Nc1ccccc1F)Oc1ccccc1 (stereo not drawn) | inactive: 1.03% |
| O=[N+]([O-])c1cc([N+](=O)[O-])c(Nc2ccc(Cl)cc2)c([N+](=O)[O-])c1 | inactive: 0.887% |
| O=[N+]([O-])c1cc([N+](=O)[O-])c(C(F)(F)F)c([N+](=O)[O-])c1O | inactive: -1.19% |
| CCOP(=O)(CC)OCC | inactive: -0.737% |
| CP(=O)(Nc1ccc(SC(F)(F)F)cc1)Oc1ccc(F)cc1 (stereo not drawn) | inactive: 2.4% |
| Cc1c(C(c2ccc3c(c2)OCO3)c2c(C)n(C)n(-c3ccccc3)c2=O)c(=O)n(-c2ccccc2)n1C.O=[N+]([O-])c1cc([N+](=O)[O-])c(O)c([N+](=O)[O-])c1 | inactive: 1% |
| O=[N+]([O-])c1cc([N+](=O)[O-])c(NCC2CCS(=O)(=O)C2)c([N+](=O)[O-])c1 (stereo not drawn) | inactive: 1.15% |
| Cc1cc(-c2cccc3ccccc23)c(C)cn1.O=[N+]([O-])c1cc([N+](=O)[O-])c(O)c([N+](=O)[O-])c1 | inactive: 2.73% |
| O=[N+]([O-])c1ccc(OP2(=O)COCCO2)cc1 (stereo not drawn) | inactive: 0.77% |
| COc1ccc(NP(C)(=O)Oc2ccccc2OC)cc1 (stereo not drawn) | inactive: 0.803% |
| CCCOc1ccc(NP(C)(=O)Oc2ccc(Cl)cc2)cc1 (stereo not drawn) | inactive: 1.11% |
| COc1ccc(-c2ccccn2)cc1.O=[N+]([O-])c1cc([N+](=O)[O-])c(O)c([N+](=O)[O-])c1 | inactive: -2.01% |
| CN1CCCCC1COC(=O)C1(O)c2ccccc2CCc2ccccc21 (stereo not drawn) | inactive: 0.976% |
| O=[N+]([O-])c1cc([N+](=O)[O-])c(Nc2nnnn2CCO)c([N+](=O)[O-])c1 | inactive: -0.134% |
| CCOC(=O)C(CC)C1=NC(C)(C)Cc2ccccc21.O=[N+]([O-])c1cc([N+](=O)[O-])c(O)c([N+](=O)[O-])c1 (stereo not drawn) | inactive: -0.958% |
| O=[N+]([O-])c1cc([N+](=O)[O-])c(-c2cnn(-c3ccccc3)c2)c([N+](=O)[O-])c1 | inactive: 1.02% |
| CN(Cc1cccnc1)C(=O)COc1ccc(Cl)c(Cl)c1.O=[N+]([O-])c1cc([N+](=O)[O-])c(O)c([N+](=O)[O-])c1 | inactive: -1.84% |
| O=[N+]([O-])c1cc([N+](=O)[O-])c(-n2nnc3ccccc32)c([N+](=O)[O-])c1 | inactive: 2.05% |
| CP(=O)(Nc1cccc(Br)c1)Oc1ccccc1 (stereo not drawn) | inactive: 1% |
| Cc1cc(C)cc(OP(C)(=O)Nc2ccccn2)c1 (stereo not drawn) | inactive: 1.52% |

| Compound | inhibition |
| --- | --- |
| Cc1cc(C)cc(OP(C)(=O)Nc2ccc(C)cc2C)c1 (stereo not drawn) | inactive: -2.62% |
| CCOC(=O)c1ccc(NP(C)(=O)Oc2cc(C)cc(C)c2)cc1 (stereo not drawn) | inactive: 1.04% |
| COc1ccccc1OP(C)(=O)Nc1cccc(Br)c1 (stereo not drawn) | inactive: 0.421% |
| O=C(O)c1cccc(Nc2c([N+](=O)[O-])cc([N+](=O)[O-])cc2[N+](=O)[O-])c1 | inactive: -0.486% |
| COc1ccccc1OP(C)(=O)Nc1cc(Cl)ccc1C (stereo not drawn) | inactive: 0.918% |
| Cc1cc(C)cc(OP(C)(N)=O)c1 (stereo not drawn) | inactive: 1.05% |
| CC(C)(C)c1ccc(OP(C)(=O)Nc2ccc(SC(F)(F)F)cc2)cc1 (stereo not drawn) | inactive: 0.76% |
| Cc1cccc(C)c1OP(C)(N)=O (stereo not drawn) | inactive: 1.01% |
| O=[N+]([O-])c1ccc2c(c1)C=Nc1ccccc1O2 | inactive: 7.35% |
| O=[N+]([O-])c1cc([N+](=O)[O-])c(Nc2cccnc2)c([N+](=O)[O-])c1 | inactive: 0.748% |
| COc1ccccc1-c1ccccn1.O=[N+]([O-])c1cc([N+](=O)[O-])c(O)c([N+](=O)[O-])c1 | inactive: -1.91% |
| CCN(CC)CCCOC(=O)C(O)(c1ccccc1)c1ccccc1 | inactive: 0.99% |
| CP(=O)(Nc1ccccn1)Oc1ccc(Cl)cc1 (stereo not drawn) | inactive: 1.57% |
| CCOC(=O)c1ccc(NP(C)(=O)Oc2ccc(OC)cc2)cc1 (stereo not drawn) | inactive: 0.564% |
| O=[N+]([O-])c1cc([N+](=O)[O-])c(O)c([N+](=O)[O-])c1.c1ccc(Oc2ccncc2)cc1 | inactive: -1.36% |
| CCc1ccc(OP(C)(=O)N2CCN(c3ccc([N+](=O)[O-])cc3)CC2)cc1 (stereo not drawn) | inactive: -0.382% |
| CP(=O)(NC(=O)Nc1ccccc1)Oc1ccccc1 (stereo not drawn) | inactive: 0.345% |
| CP(=O)(Nc1ccc(SC(F)(F)F)cc1)Oc1ccc(Cl)cc1 (stereo not drawn) | inactive: 0.621% |
| CP(=O)(Oc1ccccc1)OC(c1ccccc1)C(F)(F)F (stereo not drawn) | inactive: 0.655% |
| COc1ccccc1OP(C)(=O)Nc1ccccc1 (stereo not drawn) | inactive: 0.725% |
| CP(=O)(Nc1ccccc1Br)Oc1ccccc1 (stereo not drawn) | inactive: 4.67% |
